Results from ChEMBL document CHEMBL1955781, “Structure-activity relationship study of selective benzimidazole-based inhibitors of Cryptosporidium parvum IMPDH” (Bioorg Med Chem Lett, 2012).

Test system: Toxoplasma gondii
Experiment: Selectivity ratio of EC50 for wild type Toxoplasma gondii expressing endogenous IMPDH to EC50 for hypoxanthine-guanine-xanthine phosphoribosyltransferase gene knock out Toxoplasma gondii expressing Cryptosporidium parvum IMPDH
Format: functional

**Q.** O=C(Cn1c(-c2ccccn2)nc2ccccc21)Nc1ccc2ccccc2c1 was tested. Which “Ratio EC50” value did it give?
**A.** The value was 9.
